Anti-infective test results gathered from many reports (values: NIAID ChemDB through PubChem).

Shared fields: enzyme or target tests; agent: HIV-1; protein: Integrase; endpoint: IC50

Two numbers with a dash give a range or band.

structure	changes	read by	result
CCOP(=O)(CCCNC(=O)c1c(O)c2ncc(Cc3ccc(F)cc3)cc2n(C)c1=O)OCC	-	strand transfer	<0.1 µM
O=[N+]([O-])c1cc(S(=O)(=O)c2ccc(S)c([N+](=O)[O-])c2)ccc1S	-	disintegration	13 µM
CC(C)=CCC[C@H](C)[C@H]1CC[C@]2(C)C[C@H]3[C@H](C(=O)C[C@@]3(C)O)C(C=O)=C[C@@H]12	-	absorbance	6.7 µM
CN(C)CCCNC(=O)c1cc(NC(=O)c2cc(NC(=O)c3cc(NC(=O)c4ccc(C(=O)Nc5cc(C(=O)Nc6cc(C(=O)Nc7cc(C(=O)NCCCN(C)C)n(C)c7)n(C)c6)n(C)c5)cc4)cn3C)cn2C)cn1C	-	disintegration	0.61 µM
O=[N+]([O-])c1cc(C(F)(F)F)ccc1S(=O)(=O)c1ccccc1	-	strand transfer	>100 µM
O=C1c2cccc(O)c2C(=O)c2c(O)cccc21	-	3′ processing / substrate cleavage	>100 µM
Cn1cc(NC(=O)c2cc(NC(=O)c3cc(NC(=O)CCCCCCC(=O)Nc4cc(C(=O)Nc5cc(C(=O)Nc6cc(C(=O)NCCC(=N)N)n(C)c6)n(C)c5)n(C)c4)cn3C)cn2C)cc1C(=O)NCCC(=N)N	-	3′ processing	0.09 µM
Cc1ccc(S(=O)(=O)n2cc(/C(O)=C/C(=O)C(=O)O)c3cc(F)ccc32)cc1	-	strand transfer / fluorescence	1.2 µM
N#C/C(=C\c1ccc(O)c(O)c1)C(=O)NCc1cccc(CNC(=O)/C(C#N)=C/c2ccc(O)c(O)c2)c1	-	3′ processing / substrate cleavage	10–100 µM
Cn1c(=O)c(C(=O)NCCCP(=O)(O)O)c(O)c2ncc(Cc3ccc(F)cc3)cc21	-	strand transfer	<0.1 µM
O=c1cc(O)cc(/C=C/c2ccc(O)c(O)c2)o1	-	absorbance	2 µM
CN1CCN(c2ccc3nc(-c4ccc5nc(-c6ccc(O)cc6)[nH]c5c4)[nH]c3c2)CC1	-	3′ processing	>100 µM
CC(=O)c1cccn1Cc1ccc(F)cc1	-	binding	>100 µM
O=C(CC(=O)c1c[nH]c2ccccc12)c1nn[nH]n1	-	3′ processing	>392 µM
CC1(C)OC(=O)/C(=C/C(=O)c2cn(Cc3ccc(F)cc3)c3ccc(Br)cc23)O1	-	strand transfer / fluorescence	10.7 µM
O=C(O)c1ccc(NCc2cc(O)ccc2O)cc1	-	strand transfer	10–100 µM
Cc1ccc(S(=O)(=O)n2cc(C(C(=O)O)C(=O)O)c3cc(NC(=O)c4ccc(F)cc4)ccc32)cc1	Y143R	strand transfer / fluorescence	>25 µM
COc1cc([C@@H]2c3cc4c(cc3[C@@H](O[C@@H]3O[C@@H]5CO[C@@H](C)O[C@H]5[C@H](O)[C@H]3O)[C@H]3COC(=O)[C@H]23)OCO4)cc(OC)c1O	-	3′ processing / substrate cleavage	>100 µM
CC(C)=C/C=C\[C@H](C)[C@H]1CC[C@]2(C)C[C@H]3[C@@H]4C(=C[C@@H]12)COC4(O)C[C@@]3(C)O	-	strand transfer	>120 µM
COc1cccc2c1C(=O)c1c(O)c3c(c(O)c1C2=O)C[C@@](O)(C(=O)CO)C[C@@H]3O	-	strand transfer	>100 µM
O=C(O)c1ccc(S(=O)(=O)c2ccc(C(=O)O)c(C(=O)O)c2)cc1C(=O)O	-	strand transfer	29.5 µM
N#C/C(=C\c1cc(O)c(O)c(O)c1)C(=O)NCCCCCNC(=O)/C(C#N)=C/c1cc(O)c(O)c(O)c1	-	disintegration	2 µM
C[C@@H]1[C@@H](O)[C@H](C)C[C@@H]2C=C[C@H](C)[C@H](/C=C/C=C/C(=O)O)[C@@H]12	-	absorbance	10 µM
CN(C)CCCNC(=O)c1cc(NC(=O)c2cc(NC(=O)c3cc(NC4C(=O)c5ccccc5C4=O)cn3C)cn2C)cn1C	-	disintegration	10.2 µM
[N-]=[N+]=NCc1cc(CN=[N+]=[N-])cc(C(=O)CC(=O)C(=O)O)c1	-	strand transfer	0.46 µM
O=C(CCCN(C1CCCCC1)C1CCCCC1)Nc1ccc(S(=O)(=O)c2ccc(NC(=O)CCCN(C3CCCCC3)C3CCCCC3)cc2)cc1	-	strand transfer	>100 µM
O=C(O)C(=O)CC(=O)c1c[nH]c2ccccc12	-	strand transfer	15.1 µM
Cn1c(=O)c(C(=O)NCCCCP(=O)(O)O)c(O)c2ncc(Cc3ccc(F)cc3)cc21	-	strand transfer	<0.1 µM
O=C(O)c1ccc(S(=O)(=O)c2ccc(C(=O)O)c([N+](=O)[O-])c2)cc1[N+](=O)[O-]	-	3′ processing	55 µM
COc1cc([C@@H]2c3cc4c(cc3[C@@H](O[C@@H]3O[C@@H]5CO[C@@H](c6cccs6)O[C@H]5[C@H](O)[C@H]3O)[C@H]3COC(=O)[C@H]23)OCO4)cc(OC)c1O	-	3′ processing / substrate cleavage	>100 µM
CN1C[C@H](O)C(C)(C)Cn2c(c3c(c(O)c2=O)C(=O)N(Cc2ccc(F)c(Cl)c2)CC3)C1=O	-	strand transfer	0.014 µM
CN(C)CCCNC(=O)c1cc(NC(=O)c2cc(NC(=O)c3cc(NC(=O)c4cncc(C(=O)Nc5cc(C(=O)Nc6cc(C(=O)Nc7cc(C(=O)NCCCN(C)C)n(C)c7)n(C)c6)n(C)c5)c4)cn3C)cn2C)cn1C	-	disintegration	86 µM
CCOP(=O)(CNC(=O)c1c(O)c2ncc(Cc3ccc(F)cc3)cc2n(C)c1=O)OCC	-	strand transfer	<0.1 µM
COc1ccc(/C=C/C(=O)OC[C@H]2O[C@@H](OCCc3ccc(O)c(OC)c3)[C@H](O)[C@@H](O[C@@H]3O[C@@H](C)[C@H](O)[C@@H](O)[C@H]3O)[C@@H]2O)cc1O	-	3′ processing	>100 µM
Cc1ccc(S(=O)(=O)n2cc(C(=O)/C=C3\OC(C)(C)OC3=O)c3cc(Br)ccc32)cc1	-	strand transfer / fluorescence	5.7 µM
CN(C)CCCNC(=O)c1cc(NC(=O)c2cc(NC(=O)c3cc(NC(=O)c4cccc(C(=O)Nc5cc(C(=O)Nc6cc(C(=O)Nc7cc(C(=O)NCCCN(C)C)n(C)c7)n(C)c6)n(C)c5)n4)cn3C)cn2C)cn1C	-	3′ processing	33.3 µM
CCOC(=O)C(C(=O)OCC)c1cn(S(=O)(=O)c2ccc(C)cc2)c2ccc(NC(=O)c3cccc(C)c3O)cc12	G140S	strand transfer / fluorescence	22.9 µM
COc1ccc(/C=C/C(=O)OC[C@H]2O[C@@H](OCCc3ccc(O)c(O)c3)[C@H](O)[C@@H](O[C@@H]3O[C@@H](C)[C@H](O)[C@@H](O)[C@H]3O)[C@@H]2O)cc1O	-	3′ processing	39.9 µM
CCOP(=O)(CNC(=O)c1c(O)c2ncc(Cc3ccc(F)cc3)cc2n(CC(=O)N(C)C)c1=O)OCC	-	strand transfer	<0.1 µM
COC(=O)C(=O)CC(=O)c1cccn1Cc1ccc(F)cc1	-	binding	1.89 µM
CN(C)CCCNC(=O)c1cc(NC(=O)c2cc(NC(=O)c3cc(NC(=O)c4ccnc(C(=O)Nc5cc(C(=O)Nc6cc(C(=O)Nc7cc(C(=O)NCCCN(C)C)n(C)c7)n(C)c6)n(C)c5)c4)cn3C)cn2C)cn1C	-	3′ processing	11.1 µM
CCOP(=O)(CCNC(=O)c1c(O)c2ncc(Cc3ccc(F)cc3)cc2n(CC(=O)N(C)C)c1=O)OCC	-	strand transfer	<0.1 µM
CCOC(=O)C(C(=O)OCC)c1cn(S(=O)(=O)c2ccc(C)cc2)c2ccc(NC(=O)c3ccc(OC)cc3)cc12	G140S	strand transfer / fluorescence	>25 µM
N#C/C(=C\c1cc(O)c(O)c(O)c1)C(=O)NCCCCNC(=O)/C(C#N)=C/c1cc(O)c(O)c(O)c1	-	strand transfer	0.57 µM
O=C1C=CC(=O)c2ccccc21	-	strand transfer	>100 µM
Cn1c(=O)c(C(=O)NCCP(=O)(O)O)c(O)c2ncc(Cc3ccc(F)cc3)cc21	-	strand transfer	<0.1 µM
O=[N+]([O-])c1cccc(S(=O)(=O)c2cccc([N+](=O)[O-])c2)c1	-	3′ processing	>100 µM
CC(O)/C=C/c1ccc2c(c1)c(C(=O)/C=C1\OC(C)(C)OC1=O)cn2Cc1ccc(F)cc1	G140S	strand transfer / fluorescence	10.3 µM
COc1cc(NC(C)CCCN)c2ncccc2c1	-	strand transfer	3.62 µM
COc1ccc(Cn2nnnc2C(=O)CC(=O)c2c[nH]c3ccccc23)cc1	-	3′ processing	60 µM
CC1(C)OC(=O)/C(=C/C(=O)c2cn(Cc3cc(F)ccc3F)c3ccc(Br)cc23)O1	Y143R	strand transfer / fluorescence	14.5 µM
N#C/C(=C\c1cc(O)c(O)c(Br)c1)C(=O)NCCCNC(=O)/C(C#N)=C/c1cc(O)c(O)c(Br)c1	-	3′ processing / substrate cleavage	0.8 µM
COc1ccc(Cn2nnnc2C(=O)CC(=O)c2cc(OCc3ccccc3)cc(OCc3ccccc3)c2)cc1	-	strand transfer	>365 µM
Cc1ccc(C(=O)Nc2ccc3c(c2)c(C(C(=O)O)C(=O)O)cn3S(=O)(=O)c2ccc(C)cc2)cc1	G140S	strand transfer / fluorescence	>25 µM
CCOC(=O)C(=O)C(=O)c1cccn1Cc1ccc(F)cc1	-	strand transfer	>100 µM

Again, the opening 6 rows:

{"structure": "CCOP(=O)(CCCNC(=O)c1c(O)c2ncc(Cc3ccc(F)cc3)cc2n(C)c1=O)OCC", "read by": "strand transfer", "result": "<0.1 µM"}
{"structure": "O=[N+]([O-])c1cc(S(=O)(=O)c2ccc(S)c([N+](=O)[O-])c2)ccc1S", "read by": "disintegration", "result": "13 µM"}
{"structure": "CC(C)=CCC[C@H](C)[C@H]1CC[C@]2(C)C[C@H]3[C@H](C(=O)C[C@@]3(C)O)C(C=O)=C[C@@H]12", "read by": "absorbance", "result": "6.7 µM"}
{"structure": "CN(C)CCCNC(=O)c1cc(NC(=O)c2cc(NC(=O)c3cc(NC(=O)c4ccc(C(=O)Nc5cc(C(=O)Nc6cc(C(=O)Nc7cc(C(=O)NCCCN(C)C)n(C)c7)n(C)c6)n(C)c5)cc4)cn3C)cn2C)cn1C", "read by": "disintegration", "result": "0.61 µM"}
{"structure": "O=[N+]([O-])c1cc(C(F)(F)F)ccc1S(=O)(=O)c1ccccc1", "read by": "strand transfer", "result": ">100 µM"}
{"structure": "O=C1c2cccc(O)c2C(=O)c2c(O)cccc21", "read by": "3′ processing / substrate cleavage", "result": ">100 µM"}

An empty or dashed field is not shown. Neighbouring rows are from separate reports. ICn is the concentration giving n% inhibition.